Measured values from several laboratories, pooled; numbers as filed in NIAID ChemDB.

Common to all: enzyme or target tests; organism: HIV-1; target: Reverse transcriptase; endpoint: fold resistance

Fold resistance: result on the changed form divided by that on wild type. Blank or dashed fields: not listed here. Lines come from different laboratories, so protocols vary.

structure | read by | changes | result
CCC1(c2cccc(COc3ccccc3)c2)Oc2ccccc2-n2cccc2C1=O | nucleotide incorporation / radiometric | RT-V106A | 10.4
CCN1c2ncc(CCOc3ccc(CCC(=O)O)c4ccccc34)cc2C(=O)Nc2c(C)ccnc21 | nucleotide incorporation / radiometric | RT-Y188L | >10
CCOCn1c(Cc2ccccc2)c(C(C)C)c(=O)[nH]c1=O | nucleotide incorporation / radiometric | RT-P225H | 5
O=c1c2cccn2c2ccccc2n1CCNC(=S)Nc1ccc(Br)cn1 | nucleotide incorporation | RT-Y188L | 43.1
Nc1ccn([C@H]2C[C@H](O)[C@@H](COP(=O)(O)OP(=O)(O)OP(=O)(O)O)O2)c(=O)n1 | nucleotide incorporation / radiometric | RT-T215Y | 0.27
Nc1nc2c(ncn2[C@H]2CC[C@@H](COP(=O)(O)OP(=O)(O)OP(=O)(O)O)O2)c(=O)[nH]1 | nucleotide incorporation / radiometric | RT-P225H | 0.66
CCN1c2ncc(CCOc3cccc4c3CCCN4CC(=O)O)cc2C(=O)N(C)c2cccnc21 | nucleotide incorporation / radiometric | RT-Y188L | >10
Cc1c(Cc2c(Cl)cccc2Cl)nc(SCc2ccc(Br)cc2)[nH]c1=O | nucleotide incorporation / radiometric | RT-181I | >1025
Nc1nc2c(ncn2[C@H]2C[C@H](O)[C@@H](COP(=O)(O)OP(=O)(O)OP(=O)(O)O)O2)c(=O)[nH]1 | nucleotide incorporation / radiometric | RT-T215Y | 0.6
CC(C)=CCN1Cc2cc(Cl)cc3[nH]c(=O)n(c23)C[C@@H]1C | nucleotide incorporation / radiometric | RT-V106A P225H | 21
C=C(C)CCOCc1ccc(C2(CC)Oc3ccccc3-n3cccc3C2=O)cc1 | nucleotide incorporation / radiometric | RT-Y181I | >3.57
CCN1c2ncc(CCOc3ccc(C(=O)O)c4ccccc34)cc2C(=O)N(C)c2cccnc21 | nucleotide incorporation / radiometric | RT-Y188L | >10
O=c1c2cccn2c2ccccc2n1CCNC(=S)Nc1ccc(Cl)cn1 | nucleotide incorporation | RT-V106A | 16
CCC1(c2cccc(Cl)c2)Oc2ccccc2-n2cccc2C1=O | nucleotide incorporation / radiometric | RT-V106A | 5.5
c1ccc(C2SCc3nc4ccccc4n32)cc1 | - | RT-K103N | ~2
O=C1c2cccnc2C(=O)N1CCNC(=S)Nc1ccc(Br)cn1 | nucleotide incorporation | RT-Y188L | 31.6
Cc1c(Cc2ccc(F)cc2)nc(SCc2ccc([N+](=O)[O-])cc2)[nH]c1=O | nucleotide incorporation / radiometric | RT-181I | ~1
CCC1(c2ccc(COc3ccccc3Cl)cc2)Oc2ccccc2-n2cccc2C1=O | nucleotide incorporation / radiometric | RT-Y181I | >10
CC(C)=CCOc1cc(NC(=S)c2ccoc2C)ccc1Cl | nucleotide incorporation / radiometric | RT-P225H | 3.4
CCC1(c2cccc(Cl)c2)Cc2ccccc2-n2cccc2C1=O | nucleotide incorporation / radiometric | RT-V106A | 3
O=c1c2cccn2c2cc(Cl)c(Cl)cc2n1CCNC(=S)Nc1ccc(Br)cn1 | nucleotide incorporation | RT-L100I | 12.5
Cc1c(Cc2c(Cl)cccc2Cl)nc(SCc2ccc3c(c2)C(=O)c2ccccc2C3=O)[nH]c1=O | nucleotide incorporation / radiometric | RT-181I | >114
Cc1cn([C@H]2CC[C@@H](COP(=O)(O)OP(=O)(O)OP(=O)(O)O)O2)c(=O)[nH]c1=O | nucleotide incorporation / radiometric | RT-I132A | 0.7
CCC1(c2ccc(Cn3ccsc3=N)cc2)Oc2ccccc2-n2cccc2C1=O | nucleotide incorporation / radiometric | RT-K103N | 3.125
O=c1c2cccn2c2cccc(F)c2n1CCNC(=S)Nc1ccc(Br)cn1 | nucleotide incorporation | RT-Y188L | 22.2
C/C=C/CSc1cc(NC(=S)c2ccsc2C)ccc1Cl | - | RT-K103N | >13.33
CCC1(c2cccc(N)c2)Oc2ccccc2-n2cccc2C1=O | nucleotide incorporation / radiometric | RT-Y181I | >33.3
C=C(CC(=O)O)c1ccc(OCCc2cnc3c(c2)C(=O)N(C)c2cccnc2N3CC)c2ccccc12 | nucleotide incorporation / radiometric | RT-Y188L | >10
COc1ccc(CSc2nc(Cc3c(Cl)cccc3Cl)c(C)c(=O)[nH]2)c(OC)c1 | nucleotide incorporation / radiometric | RT-K103N | >16
Cc1occc1C(=S)Nc1ccc(Cl)c(/C=N/OC(C)(C)C)c1 | - | RT-P236L | 0.75
Cc1c(Cc2c(Cl)cccc2Cl)nc(SCc2cccc(C#N)c2)[nH]c1=O | nucleotide incorporation / radiometric | RT-181I | >42
CCC1(c2ccc(CNc3ccccc3)cc2)Oc2ccccc2-n2cccc2C1=O | nucleotide incorporation / radiometric | RT-Y181I | >111
Nc1ncnc2c1ncn2[C@@H]1O[C@H](COP(=O)(O)OP(=O)(O)OP(=O)(O)O)C[C@@H]1F | nucleotide incorporation / radiometric | RT-M184V | 0.96
O=c1c2cccn2ccn1CCNC(=S)Nc1ccc(Br)cn1 | nucleotide incorporation | RT-Y181I | 23.9
Cc1cn([C@H]2C=C[C@@H](COP(=O)(O)OP(=O)(O)OP(=O)(O)O)O2)c(=O)[nH]c1=O | nucleotide incorporation / radiometric | RT-Q151M | 3.03
Cc1cc(S(N)(=O)=O)ccc1NC(=O)COc1ccc(Cl)cc1C(=O)c1cc(Cl)cc(C#N)c1 | fluorescence | RT-V106A Y181C | 1.94
CCC1(c2ccc(CNc3cccc(F)c3)cc2)Oc2ccccc2-n2cccc2C1=O | nucleotide incorporation / radiometric | RT-K103N | 5.75

Repeating the final 5 entries:

Nc1ncnc2c1ncn2[C@@H]1O[C@H](COP(=O)(O)OP(=O)(O)OP(=O)(O)O)C[C@@H]1F ; read by: nucleotide incorporation / radiometric ; changes: RT-M184V ; result: 0.96
O=c1c2cccn2ccn1CCNC(=S)Nc1ccc(Br)cn1 ; read by: nucleotide incorporation ; changes: RT-Y181I ; result: 23.9
Cc1cn([C@H]2C=C[C@@H](COP(=O)(O)OP(=O)(O)OP(=O)(O)O)O2)c(=O)[nH]c1=O ; read by: nucleotide incorporation / radiometric ; changes: RT-Q151M ; result: 3.03
Cc1cc(S(N)(=O)=O)ccc1NC(=O)COc1ccc(Cl)cc1C(=O)c1cc(Cl)cc(C#N)c1 ; read by: fluorescence ; changes: RT-V106A Y181C ; result: 1.94
CCC1(c2ccc(CNc3cccc(F)c3)cc2)Oc2ccccc2-n2cccc2C1=O ; read by: nucleotide incorporation / radiometric ; changes: RT-K103N ; result: 5.75